Results of unrelated studies side by side (data: NIAID ChemDB).

Shared fields: growth or infection tests; species: Mycobacterium avium complex

Two numbers with a dash give a range or band.

structure | read by | measure | strain or isolate | result
CO[C@H]1/C=C/O[C@@]2(C)Oc3c(C)c(O)c4c(O)c(c(N5CCN(Cc6c(C)cc(C)cc6C)CC5)c(O)c4c3C2=O)NC(=O)/C(C)=C\C=C\[C@H](C)[C@H](O)[C@@H](C)[C@@H](O)[C@@H](C)[C@H](OC(C)=O)[C@@H]1C | - | MIC50 | 67 strains (HIV+) | 0.25 µg/mL
C#CCNC(=O)O[C@H]1C(O[C@@H]2[C@@H](C)[C@H](O[C@H]3C[C@@](C)(OC)[C@@H](OC(C)=O)[C@H](C)O3)[C@@H](C)C(=O)O[C@H](CC)[C@@](C)(O)[C@H](O)[C@@H](C)/C(=N/OCCCC3CCCCC3)[C@H](C)CC2(C)O)O[C@H](C)C[C@@H]1N(C)C | - | MIC | 20092 | 0.2 µg/mL
O=C(NCN1CCOCC1)c1cnccn1 | - | MIC | 101 | >128 µg/mL
NNC(=O)c1ccncc1 | - | MIC | 905 | 4 µg/mL
CC[C@H]1OC(=O)[C@H](C)[C@@H](O[C@H]2C[C@@](C)(OC)[C@@H](OC(C)=O)[C@H](C)O2)[C@H](C)[C@@H](O[C@@H]2O[C@H](C)C[C@H](N(C)C)[C@H]2OC(=O)NNCCCCCc2ccccc2)C(C)(O)C[C@@H](C)/C(=N\OCCCC2CCCCC2)[C@H](C)[C@@H](O)[C@]1(C)O | - | MIC | 20039 (clarithromycin-susceptible) | 1.56 µg/mL
COc1c(N2CCNC(C)C2)c(F)cc2c(=O)c(C(=O)O)cn(C3CC3)c12 | - | MIC90 | 53 strains | 6.25 µg/mL
O[C@@H](c1cc2ccc(C(F)(F)F)cc2c2cc(C(F)(F)F)ccc12)[C@H]1CCCCN1 | - | MIC50 | 24 clinical isolates | 4 µg/mL
Cc1ccn2c(C(=O)NCc3ccc4c(c3)CCO4)c(C)nc2c1 | MTT | MIC | Clinical isolate LPR | >32 µg/mL
CC1COc2c(N3CCN(C)CC3)c(F)cc3c(=O)c(C(=O)O)cn1c23 | - | MIC90 | 53 strains | 25 µg/mL
CC(C)(C)NC(=O)OCCn1sc2ccccc2c1=S | - | MIC | AN3 | 2 µg/mL
O[C@@H](c1cc(C(F)(F)F)nc2c(C(F)(F)F)cccc12)[C@H]1CCCCN1 | - | MIC | 5 clinical isolates | 8–16 µg/mL
CCn1cc(C(=O)O)c(=O)c2cc(F)c(N3CCN(C)CC3)cc21 | - | MIC90 | 89 isolates | >16 µg/mL
CCCCCCCCCCCCCCN(C)C(=O)O[C@H]1C(O[C@@H]2[C@@H](C)[C@H](O[C@H]3C[C@@](C)(OC)[C@@H](OC(C)=O)[C@H](C)O3)[C@@H](C)C(=O)O[C@H](CC)[C@@](C)(O)[C@H](O)[C@@H](C)/C(=N/OCCCC3CCCCC3)[C@H](C)CC2(C)O)O[C@H](C)C[C@@H]1N(C)C | - | MIC | 20045 | 0.2 µg/mL
CCCCNC(=O)OCCn1sc2ccccc2c1=O | - | MIC | ISS 486 | 16 µg/mL
CCCCCCCCCCCCCCCCO/N=C1\[C@H](C)CC(C)(O)[C@H](O[C@@H]2O[C@H](C)C[C@H](N(C)C)[C@H]2O)[C@@H](C)[C@H](OC2C[C@@](C)(OC)[C@@H](O)[C@H](C)O2)[C@@H](C)C(=O)O[C@H](CC)[C@@](C)(O)[C@H](O)[C@H]1C | - | MIC | 20092 (clarithromycin-resistant) | >50 µg/mL
CC[C@H]1OC(=O)[C@H](C)[C@@H](O[C@H]2C[C@@](C)(OC)[C@@H](O)[C@H](C)O2)[C@H](C)[C@@H](O[C@@H]2O[C@H](C)C[C@H](N(C)C)[C@H]2O)[C@](C)(OC)C[C@@H](C)C(=O)[C@H](C)[C@@H](O)[C@]1(C)O | - | MIC | Isolate 90-0738 | 3 µg/mL
O[C@@H](c1cc2ccc(C(F)(F)F)cc2c2cc(C(F)(F)F)ccc12)[C@@H]1CCCCN1 | - | MIC90 | 24 clinical isolates | 4 µg/mL
CC1COc2c(C3(N)CC3)c(F)cc3c(=O)c(C(=O)O)cn1c23 | - | MIC90 | 53 strains | 100 µg/mL
CO[C@H]1/C=C/O[C@@]2(C)Oc3c(C)c(O)c4c(O)c(c5c(c4c3C2=O)NC2(CCN(CC(C)C)CC2)N=5)=NC(=O)/C(C)=C\C=C\[C@H](C)[C@H](O)[C@@H](C)[C@@H](O)[C@@H](C)[C@H](OC(C)=O)[C@@H]1C | - | MIC | 168-4 | 0.5 µg/mL
CC(=O)NC[C@H]1CN(c2ccc(N3CCN(Cc4ccc([N+](=O)[O-])o4)CC3)c(F)c2)C(=O)O1 | - | MIC50 | 31 isolates | 8 µg/mL
CN(CNC(=O)c1cnccn1)Cc1ccccc1 | - | MIC | 101 | 128 µg/mL
CO[C@H]1/C=C/O[C@@]2(C)Oc3c(C)c(O)c4c(=O)c(c5oc6cc(N7CCN(CC(C)C)CC7)cc(=O)c6nc5c4c3=C2O)NC(=O)/C(C)=C\C=C\[C@H](C)[C@H](O)[C@@H](C)[C@@H](O)[C@@H](C)[C@H](OC(C)=O)[C@@H]1C | - | MIC | N-444 | 0.025 µg/mL
CC[C@H]1OC(=O)[C@H](C)[C@@H](O[C@H]2C[C@@](C)(OC)[C@@H](OC(C)=O)[C@H](C)O2)[C@H](C)[C@@H](OC2O[C@H](C)C[C@H](N(C)C)[C@H]2OC(=O)NCCCCCCCCCCCCCCN(C)C)C(C)(O)C[C@@H](C)/C(=N\OCCCC2CCCCC2)[C@H](C)[C@@H](O)[C@]1(C)O | - | MIC | 20045 | 0.78 µg/mL
CCNc1cc2c(cc1[N+](=O)[O-])c(=O)c(C(=O)O)cn2CC | - | MIC50 | - | >200 µM
CO[C@H]1/C=C/O[C@@]2(C)Oc3c(C)c(O)c4c(=O)c(c5oc6cc(N7CCN(CC(C)C)CC7)cc(=O)c6nc5c4c3=C2O)NC(=O)/C(C)=C\C=C\[C@H](C)[C@H](O)[C@@H](C)[C@@H](O)[C@@H](C)[C@H](OC(C)=O)[C@@H]1C | - | MIC | N-260 | 0.06 µg/mL
CCCCCCCCNC(=O)O[C@H]1C(O[C@@H]2[C@@H](C)[C@H](O[C@H]3C[C@@](C)(OC)[C@@H](OC(C)=O)[C@H](C)O3)[C@@H](C)C(=O)O[C@H](CC)[C@@](C)(O)[C@H](O)[C@@H](C)/C(=N/OCCCC3CCCCC3)[C@H](C)CC2(C)O)O[C@H](C)C[C@@H]1N(C)C | - | MIC | 20092 | 0.2 µg/mL
CC(C)N=C(N)/N=C(\N)NOCCCOc1cc(Cl)c(Cl)cc1Cl | - | MIC | 101 | 32 µg/mL
CCCCN(CCCC)CNC(=O)c1cnccn1 | - | MIC | 101 | >128 µg/mL
CCc1nc2ccc(Cl)cn2c1C(=O)NCc1ccc(N2CCC3(CC2)OC[C@H](C)O3)c(F)c1 | MTT | MIC | Clinical isolate 224 | ≤0.03 µg/mL
CO[C@H]1/C=C/O[C@@]2(C)Oc3c(C)c(O)c4c(O)c(c5c(c4c3C2=O)NC2(CCN(CC(C)C)CC2)N=5)=NC(=O)/C(C)=C\C=C\[C@H](C)[C@H](O)[C@@H](C)[C@@H](O)[C@@H](C)[C@H](OC(C)=O)[C@@H]1C | - | MIC50 | 211 strains | 0.35 µg/mL
Cc1ccc2nc(C)c(C(=O)NCc3ccc(C(F)(F)F)cc3)n2c1 | MTT | MIC | Clinical isolate 9141 | <0.03 µg/mL
O=C(O)c1cn(N2CCSCC2)c2cc(NC3CC3)c([N+](=O)[O-])cc2c1=O | - | MIC90 | - | 5.8 µM
CCN=c1cc2n(-c3ccc(Cl)cc3)c3ccccc3nc-2cc1Nc1ccc(Cl)cc1 | - | MIC | 211 | 0.25 µg/mL
O[C@H](c1cc2ccc(C(F)(F)F)cc2c2cc(C(F)(F)F)ccc12)[C@H]1CCCCN1 | - | MIC | 5 clinical isolates | 2 µg/mL
CC(C)N=c1cc2n(-c3ccc(Cl)cc3)c3ccccc3nc-2cc1Nc1ccc(Cl)cc1 | - | MBC | 211 | 64 µg/mL
CO[C@H]1/C=C/O[C@@]2(C)Oc3c(C)c(O)c4c(=O)c(c5oc6cc(N7CCN(CC(C)C)CC7)cc(=O)c6nc5c4c3=C2O)NC(=O)/C(C)=C\C=C\[C@H](C)[C@H](O)[C@@H](C)[C@@H](O)[C@@H](C)[C@H](OC(C)=O)[C@@H]1C | - | MBC | N-444 | 1 µg/mL
CC(C)(C)n1cc(C(=O)O)c(=O)c2cc([N+](=O)[O-])c(N3CCOCC3)cc21 | - | MIC90 | - | 50 µM
CCCCNC(=O)O[C@H]1C(O[C@@H]2[C@@H](C)[C@H](O[C@H]3C[C@@](C)(OC)[C@@H](OC(C)=O)[C@H](C)O3)[C@@H](C)C(=O)O[C@H](CC)[C@@](C)(O)[C@H](O)[C@@H](C)/C(=N/OCCCC3CCCCC3)[C@H](C)CC2(C)O)O[C@H](C)C[C@@H]1N(C)C | - | MIC | 20034 | 0.1 µg/mL
CCNC(=O)OCCN=c1ssc2ccccc12 | - | MIC | AN1 | 4 µg/mL
CC[C@H]1OC(=O)[C@H](C)[C@@H](O[C@H]2C[C@@](C)(OC)[C@@H](O)[C@H](C)O2)[C@H](C)[C@@H](O[C@@H]2O[C@H](C)C[C@H](N(C)C)[C@H]2O)[C@](C)(OC)C[C@@H](C)C(=O)[C@H](C)[C@@H](O)[C@]1(C)O | - | MIC90 | 20 strains | 16 µg/mL
CN(C)c1ccc(O)c2c1C[C@H]1C[C@H]3[C@H](N(C)C)C(=O)C(C(N)=O)=C(O)[C@@]3(O)C(=O)C1=C2O | - | MIC | LV-2 | 32 µg/mL
O=C(O)c1cn(C2CCCC2)c2cc(NC3CCCC3)c(F)cc2c1=O | - | MIC50 | - | >200 µM
CCCCN(CCCC)C[C@H](O)c1cc2c(Cl)cc(Cl)cc2c2cc(C(F)(F)F)ccc12 | - | MIC90 | 24 clinical isolates | 16 µg/mL
Nc1cc2[nH]cc(C(=O)O)c(=O)c2cc1[N+](=O)[O-] | - | MIC50 | - | >200 µM
CC(C)(C)NC(=O)OCCN=c1ssc2ccccc12 | - | MIC | AN1 | 2 µg/mL
O=C(O)c1cn(C2CCC2)c2cc(NC3CCC3)c(F)cc2c1=O | - | MIC50 | - | >200 µM
O=c1c2ccccc2sn1CCO | - | MIC | ATCC 15769 | 32 µg/mL
CC[C@H]1OC(=O)[C@H](C)[C@@H](O[C@H]2C[C@@](C)(OC)[C@@H](O)[C@H](C)O2)[C@H](C)[C@@H](O[C@@H]2O[C@H](C)C[C@H](N(C)C)[C@H]2O)[C@](C)(OC)C[C@@H](C)C(=O)[C@H](C)[C@@H](O)[C@]1(C)O | - | MIC | MO-1 | 8 µg/mL
CC(C)NC(=O)OCCN=c1ssc2ccccc12 | - | MIC | AN1 | 2 µg/mL
CCCCO/N=C1\[C@H](C)CC(C)(O)[C@H](O[C@@H]2O[C@H](C)C[C@H](N(C)C)[C@H]2O)[C@@H](C)[C@H](O[C@H]2C[C@@](C)(OC)[C@@H](OC(C)=O)[C@H](C)O2)[C@@H](C)C(=O)O[C@H](CC)[C@@](C)(O)[C@H](O)[C@H]1C | - | MIC | 20092 (clarithromycin-resistant) | >50 µg/mL
C[C@H]1COc2c(N3CCN(C)CC3)c(F)cc3c(=O)c(C(=O)O)cn1c23 | - | MIC90 | 53 strains | 12.5 µg/mL
CC[C@H]1OC(=O)[C@H](C)[C@@H](O[C@H]2C[C@@](C)(OC)[C@@H](OC(C)=O)[C@H](C)O2)[C@H](C)[C@@H](O[C@@H]2O[C@H](C)C[C@H](N(C)C)[C@H]2O)C(C)(O)C[C@@H](C)/C(=N\OCCC2CCCCC2)[C@H](C)[C@@H](O)[C@]1(C)O | - | MIC | 20096 (clarithromycin-resistant) | 3.13 µg/mL
CC(C)(C)NC(=O)OCCn1sc2ccccc2c1=O | - | MIC | ATCC 15769 | >32 µg/mL
CCCCN(CCCC)C[C@@H](O)c1cc2c(Cl)cc(Cl)cc2c2cc(C(F)(F)F)ccc12 | - | MIC | 5 clinical isolates | 1–2 µg/mL

The last 6 rows once more:

{"structure": "CC(C)NC(=O)OCCN=c1ssc2ccccc12", "measure": "MIC", "strain or isolate": "AN1", "result": "2 µg/mL"}
{"structure": "CCCCO/N=C1\\[C@H](C)CC(C)(O)[C@H](O[C@@H]2O[C@H](C)C[C@H](N(C)C)[C@H]2O)[C@@H](C)[C@H](O[C@H]2C[C@@](C)(OC)[C@@H](OC(C)=O)[C@H](C)O2)[C@@H](C)C(=O)O[C@H](CC)[C@@](C)(O)[C@H](O)[C@H]1C", "measure": "MIC", "strain or isolate": "20092 (clarithromycin-resistant)", "result": ">50 µg/mL"}
{"structure": "C[C@H]1COc2c(N3CCN(C)CC3)c(F)cc3c(=O)c(C(=O)O)cn1c23", "measure": "MIC90", "strain or isolate": "53 strains", "result": "12.5 µg/mL"}
{"structure": "CC[C@H]1OC(=O)[C@H](C)[C@@H](O[C@H]2C[C@@](C)(OC)[C@@H](OC(C)=O)[C@H](C)O2)[C@H](C)[C@@H](O[C@@H]2O[C@H](C)C[C@H](N(C)C)[C@H]2O)C(C)(O)C[C@@H](C)/C(=N\\OCCC2CCCCC2)[C@H](C)[C@@H](O)[C@]1(C)O", "measure": "MIC", "strain or isolate": "20096 (clarithromycin-resistant)", "result": "3.13 µg/mL"}
{"structure": "CC(C)(C)NC(=O)OCCn1sc2ccccc2c1=O", "measure": "MIC", "strain or isolate": "ATCC 15769", "result": ">32 µg/mL"}
{"structure": "CCCCN(CCCC)C[C@@H](O)c1cc2c(Cl)cc(Cl)cc2c2cc(C(F)(F)F)ccc12", "measure": "MIC", "strain or isolate": "5 clinical isolates", "result": "1–2 µg/mL"}

Conditions beyond the fields shown may differ between rows. Blank or dashed fields: not listed here. MIC50, MIC90 and the like: level of inhibition, or share of isolates inhibited.